Laboratory results as given in US12012411B2, “Viral replication inhibitors” (Katholieke Universiteit Leuven, priority 2011, dated 2024).

Columns and labels:
DENV-2 NGC [1] = experiment: Antiviral activity against DENV-2 NGC in Vero-B cells (viral RNA load by RT-qPCR); assay type: cell-based, Dengue virus; conditions: DENV-2 in Vero-B cells (Table 3); ratio CC50 / EC50
YFV-17D = assay type: cell-based, yellow fever virus; conditions: YFV in Vero-B cells (Table 5); ratio CC50 / EC50
DENV-2 NGC [2] = experiment: Antiviral activity against DENV-2 NGC in A549 cells (viral RNA load by RT-qPCR); assay type: cell-based, Dengue virus; conditions: DENV-2 in A549 cells (Table 6); ratio CC50 / EC50

Row | SMILES | SI (DENV-2 NGC [1]) | SI (YFV-17D) | SI (DENV-2 NGC [2])
1 | COc1cc(NC(C(=O)c2c[nH]c3ccccc23)c2ccccc2)cc(OC)c1 (centres unmarked) [CPD-002] | 2307 | 9 | 
2 | COc1cccc(NC(C(=O)c2csc3ccccc23)c2ccccc2)c1 (centres unmarked) [CPD-193] | >185 | >250 | 
3 | COc1cccc(NC(C(=O)c2c[nH]c3ccccc23)c2cccnc2)c1 (centres unmarked) [CPD-019] | 514 | 9 | 
4 | COc1cc(NC(C(=O)c2c(C)[nH]c3ccccc23)c2ccccc2)cc(OC)c1 (centres unmarked) [CPD-012] | 297 | >23 | 
5 | COc1ccc(NC(C(=O)c2c[nH]c3ccccc23)c2ccccc2)cc1OC (centres unmarked) [CPD-001] | 380 | 5 | 
6 | COc1cc(NC(C(=O)c2c[nH]c3cc(Cl)ccc23)c2ccccc2)cc(OC)c1 (centres unmarked) [CPD-013] | 5726 | 20 | 
7 | COc1cccc(NC(C(=O)c2c[nH]c3ccccc23)c2ccccc2)c1 (centres unmarked) [CPD-010] | 244 | >22 | 242
8 | COc1cccc(NC(C(=O)c2c[nH]c3ccccc23)c2nc3ccccc3o2)c1 (centres unmarked) [CPD-328] | 1231 |  | 2140
